Experimental data as given in the supplement of paper PMC9931576.
Human monoclonal antibodies against the spike receptor-binding domain (heavy:light variable regions). IC50 against pseudoviruses bearing the spike of naturally observed variants; lower = stronger; >10 µg/ml means not reached at the top dose. No active / inactive call. The stated detection limit is 0.0005 µg/ml; values near or below 0.001 µg/ml lie at the floor of the assay.

B1: BD56-1435 (protein)
chain 1: EVQLVESGGGLVKPGGSLRLSCAASGFSFNDAWMSWVRQAPGKGLEWVGRIKSKIDGGTTDYAAPVKDRFTISTDDSKNTLYLQMNSLKTEDTAMYYCTTGVDIVVRVYVDDAFDIWGQGTMVTVSS
chain 2: SSELTQDPAVSVALGQTVRITCQGDSLRSYYASWYQQKPRQAPVLVIYGENNRPSGIPDRFSGSSSGNTASLTITGAQAEDEADYYCNSRDSSGNHVVFGGGTKLTVL
B2: BD56-1440 (protein)
chain 1: EVQLVESGGGLIQPGGSLKLSCAASGFTFSNYDMHWVRQTPGKGLEWVSVIGTAGDGYYPDSVKGRFTISRENAKNSLYLQMNSLRAGDTAVYYCARGRGGGYQEGPYFDFWGQGTLVTVSS
chain 2: DIQMTQSPSSLSASVGDRVTITCRASQTIRTYLNWYQQKPGKAPKLLIYAASTLHTGVPSRFSGSGSGTDFTLTISSLQPEDFATYYCQQSYSIPPLTFGGGTKVEIK
B3: BD56-1443 (protein)
chain 1: EVQLVESGGGLVQPGRSLRLSCAASGFTFDDYAMHWVRQGPGKGLEWVSGVSWNSGTIGYADSVKGRFIIIRDNAKNSLYLQMNSLTAEDTALYYCAKDIDYGDNASGGVHYWGQGTLVTVSS
chain 2: QSALTQPASVSGSPGQSITISCTGTNSDVGGYNYVSWYQQHPGKVPKLLIYGVNKRPSGVSNRFSGSKSGNTASLTISGLQAEDEADYYCSSYTTSSTYVFGTGTKVTVL
B4: BD56-1445 (protein)
chain 1: EVQLVESGGGLVQPGGSLRLSCAASGFTFRNYWMSWVRQAPGKGLEWVANIKLDGSEKYYVDSVKGRFTISRDNAKNSLFLQMNSLRADDTAVYYCAREPTYYSGFDYWGQGTLVTVSS
chain 2: KFMLTQPHSVSESPGKTVTISCTGSSGSIASNYVQWYQQRPGSAPTTVIYEDNERPSGVPDRFSGSIDSSSNSASLTISGLKTEDEADYYCQSYDGNNQRVFGGGTKLTVL
B5: COV2-2628 (protein)
chain 1: EVQLVESGGGLVQPGRSLRLSCAASGFTFDDYAMHWVRQAPGKGLEWVSGISWNSGTIGYADSVKGRFIISRDNAKNSLYLQMNSLRPEDTALYYCAKDIIRQGEDGMDVWGQGTTVTVSS
chain 2: DIQMTQSPSSLSASVGDRVTITCRASQNIASYLNWYQQKPGKAPKLLIYAASSLQSGVPSRFSGSGSGTDFTLTISSLQPEEFATYYCHQSYFTPQTFGQGTKLEIK
B6: BD56-1452 (protein)
chain 1: QVQLQESGPGLVRPSDTLSLTCSVSGGSISHYYWNWIRQSPGKGLEWIGYVFYSGSTNYNPSLWSRVTISVDTSKNQFSLNLRSVTAADTALYYCARDRGDRSGWPDALDIWGQGTMVTVSS
chain 2: DIQMTQSPPSLSASVGDRVTITCQASQDITNYLNWYQLKPGKAPKLLIYDASNLETGVPSRFSGRGSGTDFSFTISSLQPEDIATYYCQQYDNIPWTFGQGTKVEIK

What follows are binders tested against SARS-CoV-2 Omicron BA.1 spike pseudovirus (assay: pseudovirus neutralization IC50; higher = weaker neutralization).
Procedure: (§1)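 Single-round VSV luciferase pseudovirus mixed with antibody dilutions for 1 h and put on Huh-7 cells for about a day; IC50 from the dose curve.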

Question: How did the “pseudovirus neutralization IC50” value turn out when B1 was run?
Answer: > 10 µg/mL

Question: For B2, which “pseudovirus neutralization IC50” value is on record?
Answer: > 10 µg/mL

Question: For B3, which “pseudovirus neutralization IC50” value is on record?
Answer: 0.0847 µg/mL

Question: For B4, which “pseudovirus neutralization IC50” value is on record?
Answer: > 10 µg/mL

Question: Which “pseudovirus neutralization IC50” value does the source give for B5 here?
Answer: > 10 µg/mL

Question: How did the “pseudovirus neutralization IC50” value turn out when B6 was run?
Answer: 0.223 µg/mL

Each binder was assayed against SARS-CoV-2 Omicron BA.2 spike pseudovirus in the same assay as above.
Procedure: as §1

Question: With B1 as the binder, how does the “pseudovirus neutralization IC50” value read?
Answer: > 10 µg/mL

Question: How did the “pseudovirus neutralization IC50” value turn out when B2 was run?
Answer: > 10 µg/mL

Question: Which “pseudovirus neutralization IC50” value does the source give for B3 here?
Answer: 0.0806 µg/mL

Question: How did the “pseudovirus neutralization IC50” value turn out when B4 was run?
Answer: > 10 µg/mL

Question: With B5 as the binder, how does the “pseudovirus neutralization IC50” value read?
Answer: > 10 µg/mL

Question: Which “pseudovirus neutralization IC50” value does the source give for B6 here?
Answer: 0.292 µg/mL

These binders were tested against SARS-CoV-2 Omicron BA.2.75 spike pseudovirus in the same assay as above.
Procedure: as §1

Question: For B1, which “pseudovirus neutralization IC50” value is on record?
Answer: > 10 µg/mL

Question: B2 was tested. Which “pseudovirus neutralization IC50” value did it give?
Answer: > 10 µg/mL

Question: How did the “pseudovirus neutralization IC50” value turn out when B3 was run?
Answer: 0.0515 µg/mL

Question: B4 was tested. Which “pseudovirus neutralization IC50” value did it give?
Answer: > 10 µg/mL

Question: How did the “pseudovirus neutralization IC50” value turn out when B5 was run?
Answer: > 10 µg/mL

Question: Which “pseudovirus neutralization IC50” value does the source give for B6 here?
Answer: 0.149 µg/mL

The binders below were run against SARS-CoV-2 Omicron BA.5 spike pseudovirus in the same assay as above.
Procedure: as §1

Question: With B1 as the binder, how does the “pseudovirus neutralization IC50” value read?
Answer: > 10 µg/mL

Question: For B2, which “pseudovirus neutralization IC50” value is on record?
Answer: > 10 µg/mL

Question: Which “pseudovirus neutralization IC50” value does the source give for B3 here?
Answer: 1.76 µg/mL

Question: How did the “pseudovirus neutralization IC50” value turn out when B4 was run?
Answer: > 10 µg/mL

Question: Which “pseudovirus neutralization IC50” value does the source give for B5 here?
Answer: > 10 µg/mL

Question: With B6 as the binder, how does the “pseudovirus neutralization IC50” value read?
Answer: 1.52 µg/mL

What follows are binders tested against SARS-CoV-2 Omicron BQ.1.1 spike pseudovirus in the same assay as above.
Procedure: as §1

Question: With B1 as the binder, how does the “pseudovirus neutralization IC50” value read?
Answer: > 10 µg/mL

Question: With B2 as the binder, how does the “pseudovirus neutralization IC50” value read?
Answer: > 10 µg/mL

Question: B3 was tested. Which “pseudovirus neutralization IC50” value did it give?
Answer: > 10 µg/mL

Question: Which “pseudovirus neutralization IC50” value does the source give for B4 here?
Answer: > 10 µg/mL

Question: How did the “pseudovirus neutralization IC50” value turn out when B5 was run?
Answer: > 10 µg/mL

Question: Which “pseudovirus neutralization IC50” value does the source give for B6 here?
Answer: > 10 µg/mL

These binders were tested against SARS-CoV-2 Omicron XBB spike pseudovirus in the same assay as above.
Procedure: as §1

Question: For B1, which “pseudovirus neutralization IC50” value is on record?
Answer: > 10 µg/mL

Question: With B2 as the binder, how does the “pseudovirus neutralization IC50” value read?
Answer: > 10 µg/mL

Question: With B3 as the binder, how does the “pseudovirus neutralization IC50” value read?
Answer: 3.23 µg/mL

Question: B4 was tested. Which “pseudovirus neutralization IC50” value did it give?
Answer: > 10 µg/mL

Question: Which “pseudovirus neutralization IC50” value does the source give for B5 here?
Answer: > 10 µg/mL

Question: Which “pseudovirus neutralization IC50” value does the source give for B6 here?
Answer: > 10 µg/mL

These binders were tested against SARS-CoV-2 early D614G spike pseudovirus in the same assay as above.
Procedure: as §1

Question: With B1 as the binder, how does the “pseudovirus neutralization IC50” value read?
Answer: > 10 µg/mL

Question: For B2, which “pseudovirus neutralization IC50” value is on record?
Answer: > 10 µg/mL

Question: B3 was tested. Which “pseudovirus neutralization IC50” value did it give?
Answer: 0.088 µg/mL

Question: For B4, which “pseudovirus neutralization IC50” value is on record?
Answer: 0.549 µg/mL

Question: With B5 as the binder, how does the “pseudovirus neutralization IC50” value read?
Answer: > 10 µg/mL

Question: Which “pseudovirus neutralization IC50” value does the source give for B6 here?
Answer: 0.0954 µg/mL
